Anti-infective test results gathered from many reports (values: NIAID ChemDB through PubChem).

All rows: host cell toxicity; cell line: MT-4; endpoint: CC50

Blank or dashed fields: not listed here. CCn is the concentration with n% toxicity to the cells. Lines come from different laboratories, so protocols vary.

smiles	read by	result
CC(=O)[C@]12CCC(C)(C)C=C1C1=CCC3[C@@]4(C)CCC(=O)C(C)(C)C4CC[C@@]3(C)[C@]1(C)CC2	MTT	41.19 µM
Cc1cn([C@@H]2O[C@H](COCc3ccccc3)C3(OS(=O)(=O)C=C3N)[C@H]2O[Si](C)(C)C(C)(C)C)c(=O)[nH]c1=O		13 µM
O=C(O)c1cc2cc(O)c(O)cc2[nH]1	MTT	75 µM
NC(=O)c1ncn([C@@H]2O[C@H](CO)[C@@H](O)[C@H]2O)n1		3.3 µM
Cn1ncc2c1S(=O)(=O)N(CCc1ccc(Cl)cc1)C(=O)N2CCc1ccc(Cl)cc1	MTT	6.7 µM
Cc1cn([C@@H]2O[C@H](COCc3ccccc3)C3(OS(=O)(=O)C(Cc4ccccc4)=C3NCc3ccccc3)[C@H]2O[Si](C)(C)C(C)(C)C)c(=O)n(C)c1=O		>130 µM
Cc1cn([C@@H]2O[C@H](CO[Si](C)(C)C(C)(C)C)[C@@]3(OS(=O)(=O)C=C3N)[C@H]2O[Si](C)(C)C(C)(C)C)c(=O)[nH]c1=O	trypan blue	7.7 µg/mL
CC1(C)S[C@H]([C@H](NC(=O)Cc2ccccc2)C(=O)NCc2ccccc2)N[C@H]1C(=O)N[C@H](Cc1ccccc1)[C@H](O)CC(=O)N[C@H](CO)c1ccccc1		>100 µM
CC(C)=CCc1c(-c2cc(O)c(O)cc2O)oc2c3c(cc(O)c2c1=O)OC(C)(C)C=C3		4.1 µg/mL
CC1(C)S[C@H]([C@H](NC(=O)Cc2ccccc2)C(=O)NCc2ccccc2)N[C@H]1C(=O)NCC(O)CNC(=O)[C@@H]1N[C@@H]([C@H](NC(=O)Cc2ccccc2)C(=O)NCc2ccccc2)SC1(C)C		>100 µM
CC(=O)Oc1ccc(/C=C/C(=O)O[C@H](C(=O)O)[C@H](OC(=O)/C=C/c2ccc(OC(C)=O)c(OC(C)=O)c2)C(=O)O)cc1OC(C)=O		93 µM
COC(=O)c1ccc(C(=O)N2CCC(NC(=O)c3cc(O)c(O)c(O)c3)CC2)cc1	MTT	26.9 µM
Cc1cn([C@@H]2O[C@H](C)C3(OS(=O)(=O)C=C3N)[C@H]2O[Si](C)(C)C(C)(C)C)c(=O)[nH]c1=O	trypan blue	48 µg/mL
O=C1N(Cc2ccccc2Cl)c2cscc2S(=O)(=O)N1Cc1ccccc1	MTT	>119 µM
O=C(CCc1ccc(O)cc1)c1c(O)cc(O)cc1O[C@@H]1O[C@H](CO)[C@@H](O)[C@H](O)[C@H]1O	MTT	>200 µM
Cc1cn([C@H]2C[C@H](N=[N+]=[N-])[C@@H](CO)O2)c(=O)[nH]c1=O	MTT	<7.1 µM
O=C(N/N=C/c1cc(Br)ccc1O)c1csc(N2N=C(c3ccccc3)CC2c2ccc(Cl)cc2)n1	MTT / absorbance	>125 µM
Fc1cccc(Cl)c1C1OCc2nc3ccccc3n21		71 µM
O=C(N/N=C/c1ccc(Cl)cc1Cl)c1csc(N2N=C(c3ccccc3)CC2c2ccc(Cl)cc2)n1	MTT / absorbance	94.9 µM
C=C1C[C@@H](n2cnc3c(=O)[nH]c(N)nc32)[C@@H]1CO		>100 µM
COc1cc(OC)cc(OC2O[C@H](CO)[C@@H](O)[C@H](O)[C@H]2O)c1	MTT	>200 µM
c1ccc(C2OCc3nc4ccccc4n32)cc1		47 µM
CC(C)(C)NC(=O)[C@@H]1CSCN1C(=O)[C@@H](O)[C@H](Cc1ccccc1)NC(=O)[C@H](CC(F)(F)F)NC(=O)COc1cccc2cnccc12	MTT	25 µg/mL
Cc1cn([C@H]2C[C@H](N=[N+]=[N-])[C@@H](CO)O2)c(=O)[nH]c1=O		>500 µM
Cc1cn([C@H]2C[C@H](N=[N+]=[N-])[C@@H](CO)O2)c(=O)[nH]c1=O		10.7 µM
Cc1cn([C@H]2C[C@H](N=[N+]=[N-])[C@@H](CO)O2)c(=O)[nH]c1=O	MTT / absorbance	>25 µM
Cc1ccnc2c1NC(=O)c1cccnc1N2C1CC1	MTT	100 µM
CC(=O)O[C@@H]1[C@H](n2cc(C)c(=O)[nH]c2=O)O[C@@H](COC(=O)c2ccccc2)C12OS(=O)(=O)C=C2N	trypan blue	86 µg/mL
Cc1cn([C@@H]2O[C@H](COC(=O)C(C)(C)C)C3(OS(=O)(=O)C=C3N)[C@H]2O[Si](C)(C)C(C)(C)C)c(=O)[nH]c1=O		85 µM
O=C(N/N=C/c1ccccc1)c1csc(N2N=C(c3ccccc3)CC2c2ccc(Cl)cc2)n1	MTT / absorbance	0.45 µM
COc1c(N2CCN(Cc3cn(C4CC(N=[N+]=[N-])C(CO)O4)c(=O)[nH]c3=O)C(C)C2)c(F)cc2c(=O)c(C(=O)O)cn(C3CC3)c12	MTT	190 µM
Cc1cn([C@H]2C[C@H](N=[N+]=[N-])[C@@H](CO)O2)c(=O)[nH]c1=O	MTT	>93 µM
Cc1cn([C@H]2C[C@H](N=[N+]=[N-])[C@@H](CO)O2)c(=O)[nH]c1=O		7.6 µM
Cc1ccnc2c1NC(=O)c1cccnc1N2C1CC1	MTT	>150 µM
Cn1ncc2c1S(=O)(=O)N(CCc1ccccc1Br)C(=O)N2CCc1ccccc1Br	MTT	>231.5 µM
Cc1cc(C#N)cc(C)c1Oc1ncc(NC(=O)C(F)(F)F)c(Nc2ccc(C#N)cc2)n1	MTT	>276 µM
COc1c(N2CCN(C(=O)OCc3ccccc3)C(C)C2)c(F)cc2c(=O)c(C(=O)OCC3OC(n4cc(C)c(=O)[nH]c4=O)CC3N=[N+]=[N-])cn(C3CC3)c12	MTT	27.27 µM
CC1(C)S[C@H]([C@H](NC(=O)Cc2ccccc2)C(=O)NCc2ccccc2)N[C@H]1C(=O)N[C@H](Cc1ccccc1)[C@H](O)CC(=O)N[C@@H](CO)c1ccccc1		>100 µM
O=c1c(O)c(-c2ccc(O)cc2O)oc2cc(O)cc(O)c12		140 µg/mL
Cc1cc(=O)c(O)c(C(=O)NCc2ccc(Cl)cc2)o1	MTT	>195.5 µM
COc1cc([C@@H]2c3cc(O)c(OC)cc3C[C@@H](CO)[C@@H]2CO)ccc1O	MTT	>200 µM
Cc1cc(C)c(Oc2ncc([N+](=O)[O-])c(Nc3ccc(C#N)cc3)n2)c(C)c1	MTT	≥252 µM
O=C(N/N=C/c1cccc(Cl)c1)c1csc(N2N=C(c3ccccc3)CC2c2ccc(Cl)cc2)n1	MTT / absorbance	64.5 µM
NC(=O)c1ncn([C@H]2O[C@@H](COP(=O)(O)OC[C@@H]3C=C[C@H](n4cnc5c(=O)[nH]cnc54)O3)[C@H](O)[C@@H]2O)n1		17.5 µM
Cc1cn(C2CC(N=[N+]=[N-])C(COC(=O)c3cn(C4CC4)c4cc(N5CCN(C(=O)OCc6ccccc6)CC5)c(F)cc4c3=O)O2)c(=O)[nH]c1=O	MTT	131 µM
Cn1ncc2c1S(=O)(=O)N(CCc1ccccc1)C(=O)N2CCc1ccccc1Br	MTT	>271.1 µM
CCS(=O)(=O)N1CCC(NC(=O)c2cc(O)c(O)c(O)c2)CC1	MTT	36.6 µM
C[C@@H]1O[C@@H](O[C@H]2[C@H](O[C@H]3[C@H](O[C@H]4CC[C@@]5(C)[C@@H](CC[C@]6(C)[C@@H]5CC=C5[C@@H]7CC(C)(C)C[C@@H](O)[C@]7(C)CC[C@]56C)[C@@]4(C)CO)O[C@H](C(=O)O)[C@@H](O)[C@@H]3O)O[C@H](CO)[C@H](O)[C@@H]2O)[C@H](O)[C@H](O)[C@H]1O		>1000 µg/mL
N#Cc1ccc(Nc2nc(Oc3c(Cl)cccc3Cl)ncc2[N+](=O)[O-])cc1	MTT	≥206 µM
Cc1cn(C2CC(N=[N+]=[N-])C(COC(=O)c3cn4c5c(c(N6CCN(C)CC6)c(F)cc5c3=O)OCC4C)O2)c(=O)[nH]c1=O	MTT	105 µM
COc1cccc(C(=O)N2CCC(NC(=O)c3cc(O)c(O)c(O)c3)CC2)c1	MTT	76.6 µM
Cc1cn([C@@H]2O[C@H](CO[Si](c3ccccc3)(c3ccccc3)C(C)(C)C)C3(OS(=O)(=O)C=C3N)[C@H]2O[Si](C)(C)C(C)(C)C)c(=O)n(C)c1=O		42 µM
Cn1ncc2c1S(=O)(=O)N(CCc1ccccc1)C(=O)N2CCc1ccc(Cl)cc1Cl	MTT	>277.2 µM
C=C1C[C@@H](n2cnc3c(N)ncnc32)[C@@H]1CO		>100 µM
CC(=O)Oc1ccc(/C=C/C(=O)O[C@H](C(=O)O)[C@H](OC(=O)/C=C/c2ccc(OC(C)=O)c(OC(C)=O)c2)C(=O)O)cc1OC(C)=O	XTT	60 µM
COCOc1ccc(-c2oc3cc(OCOC)cc(O)c3c(=O)c2OCOC)c(OCOC)c1		90 µg/mL
Cc1cc(C)cc(S(=O)(=O)c2c(C(=O)NC(C)c3cccc(O)c3)[nH]c3ccc(Cl)cc23)c1	MTT	>16 µM
O=C(N/N=C/c1c(Cl)cccc1Cl)c1csc(N2N=C(c3ccccc3)CC2c2ccc(Cl)cc2)n1	MTT / absorbance	6.26 µM
Nc1ncnc2c1ncn2C1CCC1		277 µM
O=C1C[C@@H](c2ccccc2)Oc2cc(O)cc(O)c21		>100 µg/mL
CCn1cc(C(=O)O)c(=O)c2cc(F)c(N3CCN(Cc4cn(C5CC(N=[N+]=[N-])C(CO)O5)c(=O)[nH]c4=O)C(C)C3)c(F)c21	MTT	>324 µM
O=C(N/N=C/c1cccc(O)c1)c1csc(N2N=C(c3ccccc3)CC2c2ccc(Cl)cc2)n1	MTT / absorbance	66.85 µM
CC1(C)S[C@H]([C@H](NC(=O)Cc2ccccc2)C(=O)NCc2ccccc2)N[C@H]1C(=O)N[C@H](Cc1ccccc1)[C@H](O)CC(=O)Nc1nc2ccccc2[nH]1		>100 µM
Cc1cn([C@@H]2O[C@H](CO[Si](C(C)(C)C)(C(C)(C)C)C(C)(C)C)C3(OS(=O)(=O)C=C3N)[C@H]2O[Si](C)(C)C(C)(C)C)c(=O)n(C)c1=O		50 µM
Cc1cn([C@@H]2O[C@H](CC3CCCCC3)C3(OS(=O)(=O)C=C3N)[C@H]2OC(=O)c2ccccc2)c(=O)[nH]c1=O	trypan blue	6.4 µg/mL
CC(C)Nc1cccnc1N1CCN(C(=O)c2cc3cc(NS(C)(=O)=O)ccc3[nH]2)CC1	MTT	>3.827 µM
O=C(NCCNC(=O)c1cc2cc(O)c(O)cc2[nH]1)c1cc2cc(O)c(O)cc2[nH]1	MTT	154 µM

The last 10 rows once more:

{"smiles": "O=C(N/N=C/c1c(Cl)cccc1Cl)c1csc(N2N=C(c3ccccc3)CC2c2ccc(Cl)cc2)n1", "read by": "MTT / absorbance", "result": "6.26 µM"}
{"smiles": "Nc1ncnc2c1ncn2C1CCC1", "result": "277 µM"}
{"smiles": "O=C1C[C@@H](c2ccccc2)Oc2cc(O)cc(O)c21", "result": ">100 µg/mL"}
{"smiles": "CCn1cc(C(=O)O)c(=O)c2cc(F)c(N3CCN(Cc4cn(C5CC(N=[N+]=[N-])C(CO)O5)c(=O)[nH]c4=O)C(C)C3)c(F)c21", "read by": "MTT", "result": ">324 µM"}
{"smiles": "O=C(N/N=C/c1cccc(O)c1)c1csc(N2N=C(c3ccccc3)CC2c2ccc(Cl)cc2)n1", "read by": "MTT / absorbance", "result": "66.85 µM"}
{"smiles": "CC1(C)S[C@H]([C@H](NC(=O)Cc2ccccc2)C(=O)NCc2ccccc2)N[C@H]1C(=O)N[C@H](Cc1ccccc1)[C@H](O)CC(=O)Nc1nc2ccccc2[nH]1", "result": ">100 µM"}
{"smiles": "Cc1cn([C@@H]2O[C@H](CO[Si](C(C)(C)C)(C(C)(C)C)C(C)(C)C)C3(OS(=O)(=O)C=C3N)[C@H]2O[Si](C)(C)C(C)(C)C)c(=O)n(C)c1=O", "result": "50 µM"}
{"smiles": "Cc1cn([C@@H]2O[C@H](CC3CCCCC3)C3(OS(=O)(=O)C=C3N)[C@H]2OC(=O)c2ccccc2)c(=O)[nH]c1=O", "read by": "trypan blue", "result": "6.4 µg/mL"}
{"smiles": "CC(C)Nc1cccnc1N1CCN(C(=O)c2cc3cc(NS(C)(=O)=O)ccc3[nH]2)CC1", "read by": "MTT", "result": ">3.827 µM"}
{"smiles": "O=C(NCCNC(=O)c1cc2cc(O)c(O)cc2[nH]1)c1cc2cc(O)c(O)cc2[nH]1", "read by": "MTT", "result": "154 µM"}